A mixed list of measured activities; the numbers were collected in NIAID ChemDB.

Common to all: growth or infection tests; organism: Staphylococcus aureus

A number after MIC or MFC names an inhibition level or a share of isolates.

smiles	read-out	dose	read by	strain	value
CN(C)[C@@H]1C(=O)C(C(N)=O)=C(O)[C@@]2(O)C(=O)C3=C(O)c4c(O)c(NC(=O)CNC(F)(F)F)cc(F)c4C[C@H]3C[C@@H]12	EC50	-	agar diffusion	161-MRS	2 µg/mL
O=C(O)c1cn(C2CC2)c2c(F)c(N3CCNCC3)c(Cl)cc2c1=O	MIC	-	-	133	0.25 µg/mL
C[C@@H](O)[C@H]1C(=O)N2C(C(=O)O)=C(SCCN=CN)C[C@H]12	MIC90	-	-	25 strains (ofloxacin-resistant)	128 µg/mL
CN1CCN(c2c(F)cc3c(=O)c(C(=O)O)cn(C4CC4)c3c2Cl)CC1	MIC	-	-	1756	0.06 µg/mL
N[C@@H]1CN(c2c(F)cc3c(=O)c(C(=O)O)cn([C@@H]4C[C@@H]4F)c3c2Cl)CC12CC2	MIC90	-	-	25 strains (ofloxacin-resistant)	4 µg/mL
CCC1CN(c2c(Cl)cc3c(=O)c(C(=O)O)cn(C4CC4)c3c2F)CCN1	MIC	-	-	133	0.25 µg/mL
CO[C@H]1/C=C/O[C@@]2(C)Oc3c(C)c(O)c4c(=O)c(c5oc6cc(N7CCN(CC(C)C)CC7)cc(=O)c6nc5c4c3=C2O)NC(=O)/C(C)=C\C=C\[C@H](C)[C@H](O)[C@@H](C)[C@@H](O)[C@@H](C)[C@H](OC(C)=O)[C@@H]1C	MIC50	-	-	20 strains (methicillin-susceptible)	0.0078 µg/mL
C[C@H]1CN(c2c(F)cc3c(=O)c(C(=O)O)cn(C4CC4)c3c2OC(F)F)CCN1	MIC90	-	-	10 strains (oxacillin-resistant)	8 µg/mL
CCCN1CCN(c2cc(=O)c3nc4c(oc3c2)c2c(=O)c3c(O)c(C)c5c(c34)=C(O)[C@@](C)(O/C=C/[C@H](OC)[C@@H](C)[C@@H](OC(C)=O)[C@H](C)[C@H](O)[C@H](C)[C@@H](O)[C@@H](C)/C=C/C=C(/C)C(=O)N2)O5)CC1	MIC	-	-	209P	0.002 µg/mL
CC(=O)NC[C@H]1CN(c2ccc(N3CCN(C(=O)CO)CC3)c(F)c2)C(=O)O1	MIC50	-	-	Oxacillin-resistant	1–4 µg/mL
COc1c(N2CCNC(C)C2)c(F)cc2c(=O)c(C(=O)O)cn(C3CC3)c12	MIC50	-	-	25 strains (methicillin-susceptible)	0.12 µg/mL
CN[C@@H]1[C@H](O[C@H]2[C@H](O[C@H]3[C@H](O)[C@@H](O)[C@H](N=C(N)N)[C@@H](O)[C@@H]3N=C(N)N)O[C@@H](C)[C@]2(O)C=O)O[C@@H](CO)[C@H](O)[C@H]1O	zone	250 µg/disc	agar diffusion	-	14 mm
CC1CN(c2c(Cl)cc3c(=O)c(C(=O)O)cn(C4CC4)c3c2Cl)CCN1	MIC	-	-	422	0.125 µg/mL
COc1c(N2C[C@@H]3CCCN[C@@H]3C2)c(F)cc2c(=O)c(C(=O)O)cn(C3CC3)c12	MIC50	-	-	24 strains (ofloxacin-susceptible)	0.12 µg/mL
CN1CCN(c2c(Cl)cc3c(=O)c(C(=O)O)cn(C4CC4)c3c2F)CC1	MIC	-	-	133	0.25 µg/mL
Cc1c(N2C[C@@H](F)[C@@H](C3(N)CC3)C2)c(F)c(N)c2c(=O)c(C(=O)O)cn([C@@H]3C[C@@H]3F)c12	MIC50	-	-	24 strains (ofloxacin-susceptible)	≤0.004 µg/mL

A second listing of 2 rows from above:

{"smiles": "CN[C@@H]1[C@H](O[C@H]2[C@H](O[C@H]3[C@H](O)[C@@H](O)[C@H](N=C(N)N)[C@@H](O)[C@@H]3N=C(N)N)O[C@@H](C)[C@]2(O)C=O)O[C@@H](CO)[C@H](O)[C@H]1O", "read-out": "zone", "dose": "250 µg/disc", "read by": "agar diffusion", "value": "14 mm"}
{"smiles": "C[C@H]1CN(c2c(F)cc3c(=O)c(C(=O)O)cn(C4CC4)c3c2OC(F)F)CCN1", "read-out": "MIC90", "strain": "10 strains (oxacillin-resistant)", "value": "8 µg/mL"}

Neighbouring rows are from separate reports. Zone: diameter of growth inhibition. An empty or dashed field is not shown. ECn is the concentration giving n% inhibition of infection, replication or growth. a–b is a range or a potency band.